Data on one compound can be found in US6987211B1, “Transgenic non-human mammals producing a cholinesterase in their milk” (dated 2006).

Chains of the proteins cited; added tags and fusions are not shown. Residues count along the entry.
UniProt P22303, 32-614: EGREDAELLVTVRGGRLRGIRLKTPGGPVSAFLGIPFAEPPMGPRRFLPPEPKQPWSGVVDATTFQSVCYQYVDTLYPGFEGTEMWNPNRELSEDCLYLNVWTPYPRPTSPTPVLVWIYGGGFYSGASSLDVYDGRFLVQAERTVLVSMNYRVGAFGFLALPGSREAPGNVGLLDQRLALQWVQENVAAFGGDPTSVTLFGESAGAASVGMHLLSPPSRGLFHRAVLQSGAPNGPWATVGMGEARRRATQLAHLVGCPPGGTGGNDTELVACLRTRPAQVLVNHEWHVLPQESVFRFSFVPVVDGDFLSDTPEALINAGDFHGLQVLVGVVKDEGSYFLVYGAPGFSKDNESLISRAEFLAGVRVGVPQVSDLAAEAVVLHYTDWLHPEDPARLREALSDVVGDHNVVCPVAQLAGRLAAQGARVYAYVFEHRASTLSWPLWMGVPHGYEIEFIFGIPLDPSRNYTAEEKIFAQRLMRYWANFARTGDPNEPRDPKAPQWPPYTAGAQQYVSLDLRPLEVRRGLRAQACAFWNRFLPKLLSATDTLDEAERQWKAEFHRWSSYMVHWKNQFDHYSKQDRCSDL

Experiment [1] has as its system embryonic Xenopus AChE. Kind of experiment: In vivo inhibition of AChE by Paraoxon in uninjected Xenopus embryos. As to conditions: in vivo (embryos, 30 minutes) versus in vitro (homogenates).
Experiment [2] addresses human recombinant AChE (Homo sapiens, UniProt P22303). Kind of experiment: In vivo inhibition of AChE by Paraoxon in CMVAChE-injected Xenopus embryos.

Take `CCOP(=O)(OCC)Oc1ccc([N+](=O)[O-])cc1`: the “decrease in sensitivity under in vivo conditions” value is listed as 5-10 fold in experiment [1] and 5-10 fold in experiment [2] (in vivo (embryos, 30 minutes) versus in vitro (homogenates)). Besides, the “higher sensitivity of human AChE than embryonic Xenopus AChE” value in experiment [2] (human versus Xenopus enzyme) was determined as 100 fold.
